According to patent US20250382354A1 (INSTITUTE FOR RESEARCH IN BIOMEDICINE IRB, published 2025):

How the values were obtained:
Assay in all cases: protein ELISA
[1] = target: T1, SARS-CoV-2 S Omicron BA.4/BA.5 (ectodomain) (SARS-CoV-2 Omicron BA.4/BA.5)
T1 construct: extracellular domain

SARS-CoV-2 SD1-RBD Delta = target: T2, SARS-CoV-2 SD1-RBD Delta (SARS-CoV-2 Delta)
T2 construct: domain: SD1-RBD

SARS-CoV-2 SD1-RBD Gamma = target: T3, SARS-CoV-2 SD1-RBD Gamma (SARS-CoV-2 Gamma)
T3 construct: domain: SD1-RBD

[2] = target: T4, SARS-CoV-2 SD1-RBD Omicron BA.2 (SARS-CoV-2 Omicron BA.2)
T4 construct: domain: SD1-RBD

[3] = target: T5, SARS-CoV-2 S Omicron BA.1 (ectodomain) (SARS-CoV-2 Omicron BA.1)
T5 construct: extracellular domain

[4] = target: T6, SARS-CoV-2 S Delta (ectodomain) (SARS-CoV-2 Delta)
T6 construct: extracellular domain

SARS-CoV-2 SD1-RBD Beta = target: T7, SARS-CoV-2 SD1-RBD Beta (SARS-CoV-2 Beta)
T7 construct: domain: SD1-RBD

| Binder | EC50 [1] | EC50 (SARS-CoV-2 SD1-RBD Delta) | EC50 (SARS-CoV-2 SD1-RBD Gamma) | EC50 [2] | EC50 [3] | EC50 [4] | EC50 (SARS-CoV-2 SD1-RBD Beta) |
| --- | --- | --- | --- | --- | --- | --- | --- |
| sd1.033 (antibody, V domains shown) VH: QVQLVQSGAEVKKPGSSVKVSCKASGGVYSTYAVSWVRQAPGQGLEWIGGIIPMFGTANYAQNFQGRVTITADESTRTAYMEVSSLRSEDTAVYYCASPSAPTYYYDSSRYYSFDYWGQGTLVTVSS VL: EIVLTQSPGTLSLSPGERATLSCRASQSVSSNFLAWFQQKPGQPPRLLIYGASSRATGIPDRFSGSGSGTDFTLTISRLVPEDFAVYFCQQYGSSRYSFGQGTKLEIK | 0.438 µg/mL | 0.0222 µg/mL | 0.0345 µg/mL | 0.383 µg/mL | 1.26 µg/mL | 0.0859 µg/mL | 0.0385 µg/mL |
| sd1.103 (antibody, V domains shown) VH: QVQLVQSGAEVKKPGSSMKVSCKASGGTLNNYAIIWVRQAPGQGLEWMGGIIPMFGAANYAQNFQGRVTITADESTRTAYLELSSLRSEDTAMYYCARVVIPYLGAHYYHYGVDVWGQGTTVTVSS VL: EIVLTQSPGTLSLSPGERATLSCRASQSVTSNYLAWYQQKPGQAPRLLIYGASSRAAGIPDRFNGSGSGTDFTLTISRLEPEDFAVYYCQQYGSSRYTFGQGTKLEIK | 0.239 µg/mL | 0.3 µg/mL | 0.244 µg/mL | 0.508 µg/mL | 2.03 µg/mL | 0.0624 µg/mL | 0.358 µg/mL |
| sd1.107 (antibody, V domains shown) VH: QVQLVQSGAEVKKPGSSVKVSCKASGGTFSSYAISWVRQAPGQGLEWMGGIIPMFGTTNYAQKFQGRVTITADESTSTAYMELSSLRSEDTAVYYCARVTHLNWRRGYEVGRISGAFDIWGQGTMVTVSS VL: not shown | 2.96 µg/mL |  | 5.96 µg/mL | 6.3 µg/mL | 2.8 µg/mL | 1.56 µg/mL |  |
| sd1.132 (antibody, V domains shown) VH: QVQLVQSGTEVKKPGSSVKVSCKASGGTFSSYAISWVRQAPGQGLEWMGGIIPMFGAPNYAQKVQGRVTITADESTSTAYMELSSLRSEDTAVYYCARMEYSNSPGRGGYYFYSNGMDVWGQGTTVTVSS VL: EIVLTQSPATLSLSPGERATLSCRASQSVSTYLAWLQQKPGQAPRLLMYDASNRASGIPARFSGSGSGTEFTLTISSLEPEDFAVYYCQQRTYWPLTFGGGTKVEIK | 0.354 µg/mL | 0.919 µg/mL | 0.932 µg/mL | 3.13 µg/mL | 1.01 µg/mL | 0.0694 µg/mL | 1.82 µg/mL |
| rbd.038 (antibody, V domains shown) VH: QVQLVQSGAEVKKPGASVKVSCKASGYTFSGYYMHWVRQAPGQGLEWVGWISPTSGGTKYAQKFQGRVTMTRDTSITTVYMELNRLRSDDTAVYYCAREPFPYCTSDICHSNYFYYYAMDVWGQGTTVTVSS VL: QSALTQPPSASGSPGQSVTISCTGSSSDLGDHNYVSWYQQHPGKAPKVMIYEVSKRPSGVPDRFSGSKSGNTASLTVSGLQAEDEADYYCSSYAGSLYVFGTGTKVTVL | 3.41 µg/mL | 0.016 µg/mL | 0.0173 µg/mL |  | 3.11 µg/mL | 0.0175 µg/mL | 0.0357 µg/mL |
| rbd.048 (antibody, V domains shown) VH: EVQLVESGGGLVQPGGSLRLSCAASGFTVSSNYMTWVRQAPGKGLEWVSVIYSGGSTFYTDSVKGRFTISRDNSKNTLYLQMNSLRAEDTAVYYCARDVVYYGMDVWGQGTTVTVSS VL: DIQMTQSPSSLSASVGDRVTITCRASQSISSYLNWYQQKPGKAPKLLIYAASSLQSGVPSRFSGSGSGTDFTLTISSLQPEDFATYYCQESYSNSPYTFGQGTKLEIK | 44.1 µg/mL | 0.0122 µg/mL | 0.0785 µg/mL |  | 0.21 µg/mL | 0.0114 µg/mL | 0.936 µg/mL |
